Paper PMC6340895 (Protein & Cell, 2019)
pIC50: −log10 of the molar value.

Tested on: LASVpv
Conditions: read-out: IC50, LASVpv infection; Vero cells, luciferase activity, Fig. 1A and text

`C/C(=N\NC(=O)CCc1ccc(C(C)(C)C)cc1)c1ccc(NC(=O)c2ccco2)cc1` [compound 57, O=C(CCC1=CC=C(C(C)(C)C)C=C1)N/N=C(C)/C2=CC=C(NC(C3=CC=CO3)=O)C=C2] and `C/C(=N\NC(=O)CCc1ccc(Br)cc1)c1ccc(NC(=O)c2ccco2)cc1` [compound 29, O=C(CCC1=CC=C(Br)C=C1)N/N=C(C)/C2=CC=C(NC(C3=CC=CO3)=O)C=C2] cannot be ordered by pIC50: over 9.70 for the first, over 9.70 for the second.

With `C/C(=N\NC(=O)CCc1cccc(C)c1)c1ccc(NC(=O)c2ccco2)cc1` [compound 21, O=C(CCC1=CC(C)=CC=C1)N/N=C(C)/C2=CC=C(NC(C3=CC=CO3)=O)C=C2] the pIC50 was over 9.70.

Same assay, conditions: supplementary Table 1, effects of R substitutions

Going from `C/C(=N\NC(=O)CCCCc1ccccc1)c1ccc(NC(=O)c2ccco2)cc1` [compound 27, O=C(CCCCC1=CC=CC=C1)N/N=C(C)/C2=CC=C(NC(C3=CC=CO3)=O)C=C2] to `C/C(=N\NC(=O)CCCc1ccccc1)c1ccc(NC(=O)c2ccco2)cc1` [compound 56, O=C(CCCC1=CC=CC=C1)N/N=C(C)/C2=CC=C(NC(C3=CC=CO3)=O)C=C2], the pIC50 falls from 8.77 to 6.58 (2.19 log units).

`C/C(=N\NC(=O)CCc1ccc(C)cc1)c1ccc(NC(=O)c2ccco2)cc1` [compound 9, O=C(CCC1=CC=C(C)C=C1)N/N=C(C)/C2=CC=C(NC(C3=CC=CO3)=O)C=C2] and `C/C(=N\NC(=O)CCCc1ccc(C)cc1)c1ccc(NC(=O)c2ccco2)cc1` [compound 23, O=C(CCCC1=CC=C(C)C=C1)N/N=C(C)/C2=CC=C(NC(C3=CC=CO3)=O)C=C2] are within 0.2 log units of each other in pIC50: 9.43 for the first, 9.52 for the second.

First: C/C(=N\NC(=O)Cc1ccc(Cl)cc1Cl)c1ccc(NC(=O)c2ccco2)cc1 [compound 8, O=C(CC1=C(Cl)C=C(Cl)C=C1)N/N=C(C)/C2=CC=C(NC(C3=CC=CO3)=O)C=C2]
Second: C/C(=N\NC(=O)Cc1ccccc1)c1ccc(NC(=O)c2ccco2)cc1 [compound 7, O=C(CC1=CC=CC=C1)N/N=C(C)/C2=CC=C(NC(C3=CC=CO3)=O)C=C2]
The pIC50 of the first is 0.22 log units higher: 6.73 for the first, 6.51 for the second.

First: C/C(=N\NC(=O)CCc1ccccc1C)c1ccc(NC(=O)c2ccco2)cc1 [compound 20, O=C(CCC1=C(C)C=CC=C1)N/N=C(C)/C2=CC=C(NC(C3=CC=CO3)=O)C=C2]
Second: C/C(=N\NC(=O)CCc1ccccc1F)c1ccc(NC(=O)c2ccco2)cc1 [compound 10, O=C(CCC1=C(F)C=CC=C1)N/N=C(C)/C2=CC=C(NC(C3=CC=CO3)=O)C=C2]
The pIC50 of the first is 0.52 log units higher: 9.04 for the first, 8.52 for the second.

Compared with `C/C(=N\NC(=O)CCc1ccccc1)c1ccc(NC(=O)c2ccco2)cc1` [compound 3, O=C(CCC1=CC=CC=C1)N/N=C(C)/C2=CC=C(NC(C3=CC=CO3)=O)C=C2], `C/C(=N\NC(=O)CCc1cccc(C)c1)c1ccc(NC(=O)c2ccco2)cc1` [compound 21, O=C(CCC1=CC(C)=CC=C1)N/N=C(C)/C2=CC=C(NC(C3=CC=CO3)=O)C=C2] is 4.66 log units higher in pIC50: 6.06 for the first, 10.72 for the second.

Compared with `C/C(=N\NC(=O)CCc1ccc(C(C)(C)C)cc1)c1ccc(NC(=O)c2ccco2)cc1` [compound 57, O=C(CCC1=CC=C(C(C)(C)C)C=C1)N/N=C(C)/C2=CC=C(NC(C3=CC=CO3)=O)C=C2], `C/C(=N\NC(=O)CCc1ccc(Br)cc1)c1ccc(NC(=O)c2ccco2)cc1` [compound 29, O=C(CCC1=CC=C(Br)C=C1)N/N=C(C)/C2=CC=C(NC(C3=CC=CO3)=O)C=C2] is lower in pIC50: over 12.00 for the first, 9.72 for the second. The first is the more potent here.

`C/C(=N\NC(=O)CCc1cccc([N+](=O)[O-])c1)c1ccc(NC(=O)c2ccco2)cc1` [compound 25, O=C(CCC1=CC([N+]([O-])=O)=CC=C1)N/N=C(C)/C2=CC=C(NC(C3=CC=CO3)=O)C=C2] and `C/C(=N\NC(=O)CCc1ccc([N+](=O)[O-])cc1)c1ccc(NC(=O)c2ccco2)cc1` [compound 24, O=C(CCC1=CC=C([N+]([O-])=O)C=C1)N/N=C(C)/C2=CC=C(NC(C3=CC=CO3)=O)C=C2] are within 0.2 log units of each other in pIC50: 7.03 for the first, 7.00 for the second.

Compared with `COc1ccc(CC(=O)N/N=C(\C)c2ccc(NC(=O)c3ccco3)cc2)cc1` [compound 54, O=C(CC1=CC=C(OC)C=C1)N/N=C(C)/C2=CC=C(NC(C3=CC=CO3)=O)C=C2], `COc1ccc(CCC(=O)N/N=C(\C)c2ccc(NC(=O)c3ccco3)cc2)cc1` [compound 22, O=C(CCC1=CC=C(OC)C=C1)N/N=C(C)/C2=CC=C(NC(C3=CC=CO3)=O)C=C2] is 3.60 log units higher in pIC50: 6.70 for the first, 10.30 for the second.

Compared with `COc1ccc(CCC(=O)N/N=C(\C)c2ccc(NC(=O)c3ccco3)cc2)c(OC)c1` [compound 28, O=C(CCC1=C(OC)C=C(OC)C=C1)N/N=C(C)/C2=CC=C(NC(C3=CC=CO3)=O)C=C2], `C/C(=N\NC(=O)CCc1ccc(F)cc1)c1ccc(NC(=O)c2ccco2)cc1` [compound 26, O=C(CCC1=CC=C(F)C=C1)N/N=C(C)/C2=CC=C(NC(C3=CC=CO3)=O)C=C2] is 1.69 log units higher in pIC50: 7.03 for the first, 8.72 for the second. The second is the more potent here.

Work on `C/C(=N\NC(=O)CCc1ccccc1C(F)(F)F)c1ccc(NC(=O)c2ccco2)cc1` [compound 30, O=C(CCC1=C(C(F)(F)F)C=CC=C1)N/N=C(C)/C2=CC=C(NC(C3=CC=CO3)=O)C=C2] yielded a pIC50 of 8.57.
